This note sets out measurements from paper PMC5329690 (International Journal of Peptides, 2017).

The nature of this series: general procedure: Fmoc solid-phase peptide synthesis; Fmoc-Rink-amide ChemMatrix, 0.47 mmol/g; HBTU/DIEA. Particulars: whole synthesis.

On to “BodiFluor-O2Oc-Tat(48-60)-O2Oc-Asp(paromomycin)-amide”, for which the isolated mass is given as 15.5 mg. The isolated yield (scale of the general procedure 50 μmoL) was determined as 10% yield.
Regarding “Bodi Fluor-O2Oc-Tat(48-60)-O2Oc-Asp(COOH)-amide”, the “final HPLC purity” value (analytical RP-HPLC, UV 220 nm, scale of the general procedure 50 μmoL) was over 95%.
